Results reported in patent US20230218663A1, “COMPOSITIONS AND METHODS FOR TREATING A SARS-COV-2 INFECTION” (priority 2020, published 2023).
Read-outs that look alike come from different tables or passages of the source.

What was measured:
SARS-CoV-2 helicase [1] = target: T1, SARS-CoV-2 helicase (Severe acute respiratory syndrome coronavirus 2, UniProt P0DTD1); settings: read-out: IC50 ATPase activity; based on metal content
SARS-CoV-2 helicase [2] = target: T1, SARS-CoV-2 helicase; settings: read-out: IC50 DNA-unwinding activity; based on metal content

Work on Bi(TPP) (TPP: tetraphenylporphyrinate) yielded an IC50 (SARS-CoV-2 helicase [1]) of 2.39 ± 0.02 µM and an IC50 (SARS-CoV-2 helicase [2]) of 3.69 ± 0.26 µM.
